Experimental data from PMC11968175, “In vitro and in vivo neutralization of Dengue virus by a single domain antibody” (ImmunoHorizons, 2025).

Experiments:
Assay in all cases: western blot
Conditions in all cases: one partner purified
[1] = biological target: envelope (E) protein of DenV3 (Dengue virus 3, strain  …, UniProt P27915)
[2] = biological target: envelope (E) protein of DenV1 (Dengue virus 1, strain  …, UniProt P17763)
[3] = biological target: envelope (E) protein of DenV4 (Dengue virus 4, strain  …, UniProt P09866)

Measured: binding result

B1: anti-DenV(E) single domain antibody (sdAb) (VHH)
VHH: QVQLVQSGGEVKKPGASVKVSCKASGYTFTNYGITWVRQAPGQGLEWMGWISAYNGYKSYAQNFQGRVTMTTDTFTSTAYMELRTLRSDDTAVYYCVRLVPKRTATLHYYIDVWGKGTTVTVST
notes: also called anti-DenV(E) sdAb; anti-DenV sdAb
binds: [1] | [2] | [3]
